Test system: human red blood cells
Assay: red blood cell lysis assay
Assay type: cell-based
Details: HC50 red blood cells / IC50 promastigotes
Protocol: The hemolytic activities of guanidine compounds were measured using human red blood cells from healthy adults (n = 3) according to methods previously described. Briefly, 80 µL of a 5% erythrocyte/phosphate-buffered saline (PBS) suspension was mixed with 20 µL of LQOFG-2, LQOFG-6, LQOFG-7, (1000 to 7.8 µM), and AmB (100 to 0.78 µM). After incubation at 37 °C for 1 h, 200 µL of PBS (1.5 mM KH2PO4, 8.1 mM Na2HPO4, 136.9 mM NaCl, and 2.6 mM KCl, pH 7.2) was added to stop the hemolysis process, and the samples were centrifuged for 10 min at 1000× g. The supernatants were collected, and the extent of hemolysis was measured spectrophotometrically at 540 nm. The hemolysis percentage was determined as [(Abssam − Abscon)/(Abstot − Abscon) × 100], where Abssam is the absorbance of the sample, Abscon is the absorbance of the blank control (without drugs), and Abstot is the absorbance of total hemolysis (replacing the sample solution with an equal volume of ultrapure water (Direct-Q UV®, Guyancourt, France)).

## CC(C)(C)c1ccc(N/C(=N\C(=O)c2ccccc2)NCc2ccccc2)cc1 [LQOFG-6, (Z)-N-((benzylamine)((4-(tert-butyl)phenyl)amino)methylene)benzamide]
  SI (HC50/IC50): >40.98

## O=C(/N=C(/NCc1ccccc1)Nc1ccc(I)cc1)c1ccccc1 [LQOFG-7, (Z)-N-((benzylamine)((4-iodophenyl)amino)methylene)benzamide]
  SI (HC50/IC50): >42.37

## C[C@@H]1[C@H](O)[C@@H](C)/C=C/C=C/C=C/C=C/C=C/C=C/C=C/[C@H](O[C@@H]2O[C@H](C)[C@@H](O)[C@H](N)[C@@H]2O)C[C@@H]2O[C@](O)(C[C@@H](O)C[C@@H](O)[C@H](O)CC[C@@H](O)C[C@@H](O)CC(=O)O[C@H]1C)C[C@H](O)[C@H]2C(=O)O [Amphotericin B, reference compound]
  SI (HC50/IC50): 4.73

— PMC10051705, “Leishmanicidal Activity of Guanidine Derivatives against Leishmania infantum” (Tropical Medicine and Infectious Disease, 2023)
